Pooled drug test results. Numbers come from NIAID ChemDB, via PubChem.

Shared fields: tests in culture; species: Epstein-Barr virus

An empty or dashed field is not shown.

smiles,method,cells,endpoint,strain or isolate,value
Nc1ncnc2c1ncn2CCOCP(=O)(O)O,,,MIC,,0.7 µg/mL
Nc1nc(Cl)nc2c1ncn2/C=C1/CC1CO,hybridisation,H-1,EC50,,>20 µM
Cc1cccc2c1OP(=O)(OC[C@H]1O[C@@H](n3cc(/C=C/Br)c(=O)[nH]c3=O)C[C@@H]1OC(=O)[C@@H](C)N)OC2,hybridisation,,EC50,,17.7 µg/mL
C=CCc1cc(OC)c(O[C@H](C)[C@H](O)c2cc(OC)c(OC)c(OC)c2)c(OC)c1,PCR,P3HR-1,EC50,,21.9 µM
COC(=O)[C@H](C)NP(=O)(OCC1C/C1=C/n1cnc2c(N)ncnc21)Oc1ccccc1,hybridisation,H-1,EC50,,0.1 µM
O=C(Nc1ccccc1)c1c(O)[nH]c(=S)[nH]c1=O,PCR,P3HR-1,EC50,,32.15 µM
Nc1ncnc2c1ncn2[C@H]1C[C@]12C[C@@H]2CO,plaque count,DAUDI,EC50,,4.8 µM
CC1OP(=O)(OC[C@H]2O[C@@H](n3cc(/C=C/Br)c(=O)[nH]c3=O)C[C@@H]2O)Oc2cccc(Cl)c21,hybridisation,,EC50,,33.3 µg/mL
Nc1ccn(C[C@@H](CO)OCP(=O)(O)O)c(=O)n1,hybridisation,P3HR-1,EC50,,0.1 µg/mL
Cc1cccc2c1OP(=O)(OC[C@H]1O[C@@H](n3cc(/C=C/Br)c(=O)[nH]c3=O)C[C@@H]1OC(=O)[C@@H](N)CC(C)C)OC2,hybridisation,,EC50,,17.1 µg/mL
CO[C@H]1C[C@H](n2cc(/C=C/Br)c(=O)[nH]c2=O)O[C@@H]1COP1(=O)OCc2cccc(C)c2O1,,P3HR-1,EC50,,>50 µg/mL
C[C@@H](N)C(=O)O[C@H]1C[C@H](n2cc(/C=C/Br)c(=O)[nH]c2=O)O[C@@H]1COP1(=O)OCc2ccccc2O1,hybridisation,,EC50,,8.08 µg/mL
N#CC(=C(/N)Sc1ccccc1N)/C(C#N)=C(\N)Sc1ccccc1N,PCR,Akata,EC50,,0.552 µM
Nc1nc2c(ncn2[C@H]2C[C@]23C[C@@H]3CO)c(=O)[nH]1,ELISA,DAUDI,EC50,,>199 µM
COC(=O)[C@H](C)NP(=O)(OC[C@H]1C/C1=C\n1cnc2c(N)nc(N)nc21)Oc1ccccc1,hybridisation,H-1,EC50,,>10 µM
Nc1ccn([C@@H]2CO[C@H](CO)O2)c(=O)n1,,P3HR-1,EC50,,0.83 µM
CCCCCCCCCC(=O)O[C@H]1C[C@H](n2cc(/C=C/Br)c(=O)[nH]c2=O)O[C@@H]1COP1(=O)OCc2cccc(C)c2O1,,P3HR-1,EC50,,>149 µM
Nc1ccn([C@@H]2CO[C@H](CO)S2)c(=O)n1,,P3HR-1,EC50,,8.3 µM
Cc1cn([C@H]2C[C@H]([N+](=O)[O-])[C@@H](CO)O2)c(=O)[nH]c1=O,hybridisation,P3HR-1,EC50,,50 µg/mL
O=c1[nH]c(=O)n([C@H]2C[C@H](O)[C@@H](COP3(=O)OCc4cc(-c5ccccc5)ccc4O3)O2)cc1/C=C/Br,hybridisation,,EC50,,24.1 µg/mL
NC(=O)c1ncn([C@@H]2O[C@H](CO)[C@@H](O)[C@H]2O)n1,hybridisation,P3HR-1,EC50,,>50 µg/mL
Cc1ccc(S(=O)(=O)Oc2nn(C3=CCCO3)nc2C(F)(F)F)cc1,PCR,,EC50,B95-8 lymphoblastoid,10 µM
Cn1c2ccccc2c2c3c(c4c5ccccc5n(CCC#N)c4c21)CNC3=O,,Akata,EC50,,0.11 µM
Nc1nc(Cl)nc2c1ncn2/C=C1\CC1CO,hybridisation,H-1,EC50,,>20 µM
Nc1ncnc2c1c(I)cn2[C@@H]1O[C@H](CO)[C@@H](O)[C@H]1O,PCR,Akata,EC50,,0.89 µM
CCC(=O)O[C@H]1C[C@H](n2cc(/C=C/Br)c(=O)[nH]c2=O)O[C@@H]1COP1(=O)OCc2cccc(C)c2O1,,P3HR-1,EC50,,>175 µM
Nc1nc(NC2CC2)c2ncn(C=C3CC3CO)c2n1,antigen,DAUDI,EC50,,11.8 µM
CCOC(C)n1nc(OS(=O)(=O)c2ccc(C)cc2)c(C(F)(F)F)n1,PCR,,EC50,B95-8 lymphoblastoid,11 µM
Nc1nc2c(ncn2[C@H]2C[C@@]23C[C@@H]3CO)c(=O)[nH]1,ELISA,DAUDI,EC50,,6 µM
Nc1nc(N)c2ncn(CCOCP(=O)(O)O)c2n1,,,MIC,,0.05 µg/mL
Nc1nc2c(ncn2COC(CO)CO)c(=O)[nH]1,,P3HR-1,EC50,,0.15 µM
Cc1cn([C@@H]2C[C@@H](O)[C@H](CO)O2)c(=O)[nH]c1=O,,DAUDI,EC50,,>50 µM
COC(=O)[C@H](C)NP(=O)(OC[C@@H]1C[C@]12C[C@@H]2n1cnc2c(N)ncnc21)Oc1ccccc1,ELISA,DAUDI,EC50,,2.8 µM
Cc1ccc(S(=O)(=O)Oc2nn([C@H]3O[C@H](CO)[C@@H](O)[C@H](O)[C@H]3Cl)nc2C(F)(F)F)cc1,PCR,,EC50,B95-8 lymphoblastoid,21 µM
C[C@H](Cn1cnc2c(N)nc(N)nc21)OCP(=O)(O)O,hybridisation,P3HR-1,EC50,,>50 µg/mL
Cc1cn([C@@H]2C[C@@H](O)[C@H](CO)O2)c(=O)[nH]c1=O,,DAUDI,EC50,,>50 µM
Nc1nc2c(ncn2CCC(CO)CO)c(=O)[nH]1,hybridisation,P3HR-1,EC50,,2.3 µg/mL
Nc1nc2c(ncn2[C@H]2C[C@@]23C[C@H]3CO)c(=O)[nH]1,ELISA,DAUDI,EC50,,>199 µM
COc1nc(N)nc2c1ncn2C=C1CC1CO,hybridisation,H-1,EC50,,1.6 µM
Cc1cn([C@H]2CC[C@@H](CO)O2)c(=O)n(NO)c1=O,hybridisation,P3HR-1,EC50,,4.1 µg/mL
CCCCCC(=O)O[C@H]1C[C@H](n2cc(/C=C/Br)c(=O)[nH]c2=O)O[C@@H]1COP1(=O)OCc2cccc(C)c2O1,,P3HR-1,EC50,,>163 µM
O=C1Cc2c([nH]c3ccc(Br)cc23)-c2ccccc2N1,PCR,Akata,EC50,,0.681 µM

4 of the rows above, restated:

smiles	method	cells	endpoint	strain or isolate	value
COC(=O)[C@H](C)NP(=O)(OC[C@@H]1C[C@]12C[C@@H]2n1cnc2c(N)ncnc21)Oc1ccccc1	ELISA	DAUDI	EC50		2.8 µM
CC1OP(=O)(OC[C@H]2O[C@@H](n3cc(/C=C/Br)c(=O)[nH]c3=O)C[C@@H]2O)Oc2cccc(Cl)c21	hybridisation		EC50		33.3 µg/mL
Nc1nc2c(ncn2[C@H]2C[C@@]23C[C@@H]3CO)c(=O)[nH]1	ELISA	DAUDI	EC50		6 µM
Cc1cccc2c1OP(=O)(OC[C@H]1O[C@@H](n3cc(/C=C/Br)c(=O)[nH]c3=O)C[C@@H]1OC(=O)[C@@H](C)N)OC2	hybridisation		EC50		17.7 µg/mL

ECn: concentration that inhibits the pathogen or its effect by n%. Rows are shuffled and stem from different studies.